Source: PubChem BioAssay AID624099 (ICCB-Longwood, 2012)
Test: 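Knock-downs relieving repression by E2 of an HPV18 LCR luciferase reporter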 (primary screen). Cells: human C33A cervical carcinoma cells (HPV-negative) stably expressing BPV1 E2 and an HPV18 LCR luciferase reporter. Reagents: siRNA pool against human genes, 40 nM. Time to read-out: 72 h. Measurement: 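Per-well luciferase luminescence, z-scored on each plate against the plate mean and SD with control wells left out, then averaged across three replicate plates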. Scale: mean z-score and z-score: higher = stronger reporter signal, weaker E2 silencing. Call rule: 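Hit if mean z-score reaches 2 and two or more of three replicate z-scores also reach 2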.
The whole screen tested about 21,000 reagents; this is a random part of them. Of all reagents, 497 (2.4%) were called active. 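Higher z means weaker E2 silencing; only reporter increases were scored, and knock-downs that hurt cell survival may mask genuine repressor factors.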

The first 6 entries, ahead of the listing:
Gene	PubChem SID	mean z-score	z-score, replicate A	z-score, replicate B	z-score, replicate C	call
ACOT8	SID134314331	1.36	1.53	1.29	1.24	inactive
KCNN4	SID134310487	-0.57	-0.56	-0.52	-0.64	inactive
HPR	SID134313215	1.05	1.54	0.77	0.84	inactive
ATP5F1B	SID134322464	-0.94	-0.86	-0.93	-1.04	inactive
HES4	SID134320126	1.87	2.37	1.54	1.69	inactive
ANKRD44	SID134319738	0.08	-0.22	-0.36	0.82	inactive

The listing, from the start:
Gene	PubChem SID	mean z-score	z-score, replicate A	z-score, replicate B	z-score, replicate C	call
ACOT8	SID134314331	1.36	1.53	1.29	1.24	inactive
KCNN4	SID134310487	-0.57	-0.56	-0.52	-0.64	inactive
HPR	SID134313215	1.05	1.54	0.77	0.84	inactive
ATP5F1B	SID134322464	-0.94	-0.86	-0.93	-1.04	inactive
HES4	SID134320126	1.87	2.37	1.54	1.69	inactive
ANKRD44	SID134319738	0.08	-0.22	-0.36	0.82	inactive
VWDE	SID134327738	0.6	0.23	0.74	0.82	inactive
MEIOB	SID134319784	0.01	0	0.29	-0.25	inactive
NAT16	SID134329339	0.6	0.38	1.02	0.38	inactive
CASTOR2	SID134327726	-0.87	-0.65	-0.68	-1.29	inactive
XRCC6P2	SID134329163	0.99	0.44	1.19	1.34	inactive
STAMBPL1	SID134311210	-1.1	-0.69	-1.26	-1.36	inactive
TEX44	SID134321135	0.84	1.03	0.34	1.14	inactive
NUP133	SID134317551	0.94	1.06	0.71	1.06	inactive
ELL	SID134313075	1.38	1.28	1.39	1.47	inactive
CHCHD4	SID134320054	0.06	0.07	-0.07	0.18	inactive
RPL30	SID134317822	-1.88	-1.54	-2.02	-2.08	inactive
BEX1	SID134319151	0.88	0.59	1.07	1	inactive
SLC27A5	SID134312547	-0.83	-0.46	-0.98	-1.06	inactive
LOC389657 (retired record)	SID134328005	-0.23	-0.67	0.01	-0.03	inactive
FHOD1	SID134317920	1.26	1.14	1.44	1.2	inactive
ABCB10	SID134312348	-0.89	-0.98	-0.75	-0.93	inactive
CACNG3	SID134321387	-0.23	-0.17	-0.2	-0.32	inactive
GAR1	SID134317613	-0.07	0.04	0.03	-0.26	inactive
AGA	SID134310240	0.36	0.26	0.46	0.36	inactive
WDR55	SID134319408	-1.23	-1.19	-1.36	-1.14	inactive
TMEM187	SID134315767	-1.54	-1.54	-1.39	-1.68	inactive
LGR6	SID134311087	-0.33	-0.06	-0.48	-0.46	inactive
PDGFD	SID134313724	-0.22	-0.31	0.02	-0.36	inactive
DCAF16	SID134324375	0.93	1.39	0.81	0.57	inactive
IREB2	SID134325353	0.45	0.51	0.27	0.59	inactive
MLANA	SID134316975	1.04	1.06	0.91	1.14	inactive
RPLP1	SID134315493	-1.86	-2.18	-1.52	-1.89	inactive
HGS	SID134320810	-0.85	-0.92	-0.96	-0.67	inactive
LOC388206 (retired record)	SID134328680	0.04	-0.08	-0.02	0.22	inactive
KCNJ4	SID134311667	0.09	-0.06	0.3	0.04	inactive
CD48	SID134319983	1.28	1.52	1.24	1.07	inactive
LINC01996	SID134328755	0.18	0.37	-0.17	0.32	inactive
RAB33A	SID134313092	0.83	1.06	0.63	0.79	inactive
PRP4K	SID56478770	-1.56	-1.66	-1.47	-1.54	inactive
IL4R	SID134312924	-0.98	-1.11	-0.8	-1.04	inactive
NRG3	SID56479301	0.8	0.54	1.09	0.77	inactive
SMAD4	SID134310148	0.27	0.17	0.75	-0.12	inactive
LINC00614	SID134326555	0.91	0.61	1.13	1.01	inactive
LTAP1	SID134318156	1.56	0.9	2.23	1.56	inactive
XPNPEP3	SID134311357	-0.17	-0.17	-0.57	0.24	inactive
IFNL3	SID134312914	1.36	2.39	0.91	0.77	inactive
ARHGAP36	SID134313318	-0.08	-0.24	0.1	-0.1	inactive
LOC402326 (retired record)	SID134327962	0.85	1.09	0.41	1.06	inactive
SLC6A8	SID134312654	-0.87	-0.99	-0.66	-0.96	inactive
AQP5	SID134310502	0.96	0.82	1.15	0.92	inactive
GYPA	SID134316000	0.19	0.34	-0.01	0.25	inactive
SPEM1	SID134329583	-1.88	-1.98	-2.05	-1.6	inactive
MARK1	SID56478786	0.31	0.36	0.59	-0.01	inactive
SAMD11	SID134320691	0.92	0.76	1.51	0.5	inactive
LOC340511 (retired record)	SID134326461	-1.32	-1.07	-1.74	-1.16	inactive
SLC40A1	SID134312622	0.18	0.01	0.19	0.34	inactive
